Test results published in EP0429856A2, “Pharmaceutical preparation containing a metal salt of ibuprofen and process for making same” (Dolorgiet GmbH & Co. KG, priority 1989, dated 1991).

Assay: Solubility of ibuprofen salts in saturated solutions at room temperature (HPLC, UV detection)
Settings: Glycerinmonoricinoleat
Text: Zur Bestimmung der Löslichkeit der Ibuprofen-Salze werden bei Raumtemperatur gesättigte Lösungen hergestellt. Ein aliguoter Teil dieser Lösungen wird mit einem mit der Lösung mischbaren Lösungsmittel verdünnt und der Gehalt an Ibuprofen mittels HPLC über eine Reversed-Phase-Säule und UV-Detektion bestimmt.

In the case of Ibuprofen-Calciumsalz, the “Löslichkeit von Ibuprofen-Salzen bei Raumtemperatur” value is reported as 64 mg Ibuprofen/ml.
